PubChem BioAssay AID624099 | ICCB-Longwood | 2012
Assay: 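Knock-downs relieving repression by E2 of an HPV18 LCR luciferase reporter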 (primary screen). Cell system: human C33A cervical carcinoma cells (HPV-negative) stably expressing BPV1 E2 and an HPV18 LCR luciferase reporter. Knock-down reagent: siRNA pool against human genes, 40 nM. Timing: 72 h. Detection: 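Per-well luciferase luminescence, z-scored on each plate against the plate mean and SD with control wells left out, then averaged across three replicate plates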. Direction: mean z-score and z-score: higher = stronger reporter signal, weaker E2 silencing. Rule for the call: 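Mean z ≥ 2 together with z ≥ 2 in two or more of the three replicates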.
The deposit covers about 21,000 reagents; shown is an unselected part. 497 of all reagents (2.4%) were called active. 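Higher z means weaker E2 silencing; only reporter increases were scored, and knock-downs that hurt cell survival may mask genuine repressor factors.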

LPA (GeneID 4018) scored mean z-score 0.11; z-score, replicate A = -0.08; z-score, replicate B = 0.18; z-score, replicate C = 0.25; inactive.
ADNP (GeneID 23394) showed mean z-score -1.35; z-score, replicate A = -1.51; z-score, replicate B = -1.31; z-score, replicate C = -1.24; inactive.
PAK4 (GeneID 10298) showed mean z-score 0.3; z-score, replicate A = -0.05; z-score, replicate B = 0.36; z-score, replicate C = 0.61; inactive.
Depletion of TP73 (GeneID 7161) resulted in: mean z-score 1.27; z-score, replicate A = 1.19; z-score, replicate B = 1.31; z-score, replicate C = 1.31; inactive.
PICALM (GeneID 8301) gave mean z-score 1.38; z-score, replicate A = 1.39; z-score, replicate B = 1.67; z-score, replicate C = 1.07; inactive.

Sorted by “z-score, replicate B” (lowest first): some entries from above
ADNP (GeneID 23394): mean z-score = -1.35; z-score, replicate A = -1.51; z-score, replicate B = -1.31; z-score, replicate C = -1.24; outcome = inactive
PAK4 (GeneID 10298): mean z-score = 0.3; z-score, replicate A = -0.05; z-score, replicate B = 0.36; z-score, replicate C = 0.61; outcome = inactive

More records follow:
Against SH3PXD2B (GeneID 285590) the deposit lists mean z-score 0.27; z-score, replicate A = 0.95; z-score, replicate B = 0.54; z-score, replicate C = -0.67; inactive.
Against RGS5 (GeneID 8490) the deposit lists mean z-score -0.33; z-score, replicate A = -0.13; z-score, replicate B = -0.02; z-score, replicate C = -0.84; inactive.
With knock-down of EEIG2 (GeneID 284611), the record shows mean z-score 0.24; z-score, replicate A = -0.06; z-score, replicate B = 0.38; z-score, replicate C = 0.38; inactive.
With knock-down of H6PD (GeneID 9563), the record shows mean z-score -1.02; z-score, replicate A = -1.08; z-score, replicate B = -1.07; z-score, replicate C = -0.91; inactive.
EIF2S2 (GeneID 8894) scored mean z-score -2.22; z-score, replicate A = -2.07; z-score, replicate B = -2.48; z-score, replicate C = -2.11; inactive.
Silencing of ITGA9 (GeneID 3680) resulted in: mean z-score -0.22; z-score, replicate A = -0.12; z-score, replicate B = -0.43; z-score, replicate C = -0.11; inactive.
LOC392586 (retired record) (GeneID 392586) gave mean z-score -0.67; z-score, replicate A = -1.34; z-score, replicate B = -0.5; z-score, replicate C = -0.17; inactive.
